A mixed list of measured activities; the numbers were collected in NIAID ChemDB.

Common to all: tests in culture; species: Herpes simplex virus 2

Inhibition is in % at the dose shown (toxicity tests: loss of growth or viability).

O=c1[nH]c(=O)n([C@H]2C[C@H](O)[C@@H](CO)O2)cc1I ; strain or isolate: K979 ; cells: VERO ; method: cytopathic effect ; read-out: inhibition ; dose: 2.8 µM ; result: >25%
Cn1c2ccccc2c(=O)c2c(O)cc3c(c21)C=CC(C)(C)O3 ; cells: HEF ; method: plaque count ; read-out: EC50 ; result: >20 µg/mL
Nc1nc2c(ncn2COC(CO)CO)c(=O)[nH]1 ; strain or isolate: 196 ; read-out: MIC ; result: 0.63 µM
COc1cc2c(cc1CO)CC[C@H]1C(C)(CO)CCC[C@]21C ; cells: VERO ; method: plaque count ; read-out: inhibition ; dose: 100 µM ; result: 100%
Nc1nc(N)c2ncn(CCOCP(=O)(O)O)c2n1 ; strain or isolate: PCV-resistant/B ; cells: HEL ; method: cytopathic effect ; read-out: EC50 ; result: 2 µg/mL
CC(C)[C@H](N)C(=O)N[C@H](C(=O)OCCOCn1cnc2c(=O)[nH]c(N)nc21)C(C)C ; strain or isolate: 196 ; read-out: MIC ; result: 1.3 µM
COc1ccc2c(=O)c3c(O)cc4c(c3n(C)c2c1OC)C=CC(C)(C)O4 ; cells: HEF ; method: plaque count ; read-out: EC50 ; result: >20 µg/mL
O=C(O)P(=O)(O)O ; strain or isolate: ACV-resistant ; cells: HEL ; method: cytopathic effect ; read-out: EC50 ; result: 27 µg/mL
O=C(CP(=O)(O)O)OC[C@H]1O[C@@H](n2cc(CCCl)c(=O)[nH]c2=O)C[C@@H]1O ; strain or isolate: TK- ; cells: VERO ; method: cytopathic effect ; read-out: inhibition ; dose: 72.7 µM ; result: >25%
O=c1c(O)c(-c2ccc(O)c(O)c2)oc2cc(O)cc(O)c12 ; cells: VERO ; read-out: inhibition ; dose: 60 µg/mL ; result: 65%
COc1c2c(cc3ccoc13)C(=O)[C@H]1c3cc4c(cc3OC[C@H]1O2)OCO4 ; strain or isolate: 186 ; cells: VERO ; method: plaque count ; read-out: inhibition ; dose: 50 µg/mL ; result: 15.5%
COc1cc(O)c2c(=O)c3cccc(O)c3n(C)c2c1OC ; strain or isolate: TK- ; cells: HEF ; method: plaque count ; read-out: EC50 ; result: 0.92 µg/mL
CCOC(=O)P(=O)(OC)OC[C@H]1O[C@@H](n2cc(I)c(=O)[nH]c2=O)C[C@@H]1O ; strain or isolate: TK- ; cells: VERO ; method: cytopathic effect ; read-out: inhibition ; dose: 5.9 µM ; result: >25%
CC(C)[C@H](NC(=O)CN)C(=O)OCCOCn1cnc2c(=O)[nH]c(N)nc21 ; strain or isolate: 196 ; read-out: MIC ; result: 1.3 µM
O=C(O)P(=O)(O)O ; strain or isolate: K979 ; cells: VERO ; method: cytopathic effect ; read-out: inhibition ; dose: 238 µM ; result: >25%
Nc1ncnc2c1ncn2C[C@@H](CO)OCP(=O)(O)O ; strain or isolate: PCV-resistant/A ; cells: HEL ; method: cytopathic effect ; read-out: EC50 ; result: 0.062 µg/mL
O=C1c2cc3ccoc3cc2O[C@@H]2COc3cc4c(cc3[C@H]12)OCO4 ; strain or isolate: 186 ; cells: VERO ; method: plaque count ; read-out: inhibition ; dose: 50 µg/mL ; result: 24.4%
Nc1ncnc2c1ncn2CCOCP(=O)(O)O ; read-out: MIC ; result: 7 µg/mL
O=C(O)P(=O)(O)O ; strain or isolate: 91075 ; cells: SIRC ; method: plaque count ; read-out: EC50 ; result: <100 µM
Nc1ncnc2c1ncn2[C@@H]1C=C(CO)[C@@H](O)[C@H]1O ; strain or isolate: G ; read-out: MIC ; result: 10 µg/mL
CC(C)[C@H](NC(=O)[C@@H](N)Cc1ccccc1)C(=O)OCCOCn1cnc2c(=O)[nH]c(N)nc21 ; strain or isolate: 196 ; read-out: MIC ; result: 1.6 µM
COP(=O)(CC(=O)O[C@H]1C[C@H](n2cc(CCCl)c(=O)[nH]c2=O)O[C@@H]1CO)OC ; strain or isolate: K979 ; cells: VERO ; method: cytopathic effect ; read-out: inhibition ; dose: 22.7 µM ; result: >25%
O=C(O)CP(=O)(O)O ; strain or isolate: ACV-resistant ; cells: HEL ; method: cytopathic effect ; read-out: EC50 ; result: 11 µg/mL
Nc1nc2c(ncn2COCCO)c(=O)[nH]1 ; strain or isolate: K979 ; cells: VERO ; method: cytopathic effect ; read-out: inhibition ; dose: 1.3 µM ; result: >25%
Nc1nc(N)c2ncn(CCOCP(=O)(O)O)c2n1 ; read-out: MIC ; result: 0.7 µg/mL

Again, the opening 2 rows:

structure	strain or isolate	cells	method	read-out	dose	result
O=c1[nH]c(=O)n([C@H]2C[C@H](O)[C@@H](CO)O2)cc1I	K979	VERO	cytopathic effect	inhibition	2.8 µM	>25%
Cn1c2ccccc2c(=O)c2c(O)cc3c(c21)C=CC(C)(C)O3		HEF	plaque count	EC50		>20 µg/mL

Lines come from different laboratories, so protocols vary. An empty or dashed field is not shown. ECn: concentration that inhibits the pathogen or its effect by n%.